A mixed list of measured activities; the numbers were collected in NIAID ChemDB.

Common to all: tests in culture; agent: HIV-1; method: MTT; measure: EC50

ECn: concentration that inhibits the pathogen or its effect by n%.

O=C1CCc2ccccc2[Se]1 ; strain or isolate: LAI ; cells: MT-2 ; value: >100 µM
N#Cc1cc(Cl)cc(Oc2c(Br)ccc(Cn3cn[nH]c3=O)c2F)c1 ; strain or isolate: K103N/Y181C ; changes: NNRTI-resistant (RT K103N/Y181C) ; cells: MT-4 ; value: 0.055 µM
Cc1cc(C#N)cc(C)c1Oc1nc(N/N=C/c2ccc(C#N)cc2)nc2ccsc12 ; strain or isolate: RES056 ; changes: K103N/Y181C ; cells: MT-4 ; value: >58.9 µM
COC(=O)N[C@H](C(=O)N[C@@H](Cc1ccccc1)[C@@H](O)CN(Cc1ccc(-c2ccccn2)cc1)NC(=O)[C@@H](NC(=O)OC)C(C)(C)C)C(C)(C)C ; strain or isolate: LAI ; cells: MT-2 ; value: 0.003 µM
C#Cc1ccc(Nc2nccc(Oc3c(C)cc(-c4cn(CCCC(=O)OC)nn4)cc3C)n2)cc1 ; strain or isolate: IIIB ; changes: L100I ; cells: MT-4 ; value: 7.1 µM
Cc1cc(C#N)cc(C)c1Oc1nc(N/N=C/C2CCN(Cc3ccc([N+](=O)[O-])cc3)CC2)nc2ccsc12 ; strain or isolate: IIIB ; cells: MT-4 ; value: >13.4 µM
COC(=O)N[C@H](C(=O)N[C@@H](Cc1ccccc1)[C@@H](O)CN(Cc1ccc(-c2ccccn2)cc1)NC(=O)[C@@H](NC(=O)OC)C(C)(C)C)C(C)(C)C ; strain or isolate: LAI ; cells: MT-2 ; value: 0.005 µM
Cc1cc(C#N)cc(C)c1Oc1nc(N/N=C/C2CCN(Cc3ccc(S(=O)(=O)NC4CC4)cc3)CC2)nc2ccsc12 ; strain or isolate: IIIB ; cells: MT-4 ; value: >4.03 µM
Cc1cc(C)c(Oc2ccc(N)c(NC3CCN(Cc4ccncc4)CC3)n2)c(C)c1 ; strain or isolate: IIIB ; cells: MT-4 ; value: 0.084 µg/mL
Cc1cc(C#N)cc(C)c1Oc1nc(N/N=C/C2CCN(Cc3ccc(S(N)(=O)=O)cc3)CC2)nc2ccsc12 ; strain or isolate: IIIB ; cells: MT-4 ; value: >3.6 µM
O=C(/C=C/c1ccc(O)c(O)c1)[Se]c1ccccc1 ; strain or isolate: LAI ; cells: MT-2 ; value: 7.3 µM
Cc1cc(C#N)cc(C)c1Oc1ccc([N+](=O)[O-])c(NC2CCN(Cc3ccc(C(N)=O)cc3)CC2)n1 ; strain or isolate: IIIB ; changes: Resistant strain (K103N + Y181C) ; cells: MT-4 ; value: >27 µM
Cc1cn([C@H]2C[C@H](N=[N+]=[N-])[C@@H](CO)O2)c(=O)[nH]c1=O ; strain or isolate: RES056 ; changes: K103N/Y181C ; cells: MT-4 ; value: 0.017 µM
Cn1cc(Cc2ccc(Br)c(Oc3cc(Cl)cc(C#N)c3)c2F)c(=O)[nH]c1=O ; strain or isolate: K103N/Y181C ; changes: NNRTI-resistant (RT K103N/Y181C) ; cells: MT-4 ; value: 0.066 µM
Cc1cc(C#N)cc(C)c1Oc1nc(N/N=C/C2CCN(Cc3ccncc3)CC2)nc2ccsc12 ; strain or isolate: IIIB ; cells: MT-4 ; value: >5.52 µM
COc1ccc(S(=O)(=O)N(CC(C)C)C[C@@H](O)[C@H](Cc2ccccc2)NC(=O)O[C@H]2CO[C@H]3OCC(F)(F)[C@H]32)cc1 ; strain or isolate: LAI ; cells: MT-2 ; value: 0.0008 µM
CN1C(=O)NC(=O)C1Cc1ccc(Br)c(Oc2cc(Cl)cc(C#N)c2)c1F ; strain or isolate: K103N/Y181C ; changes: NNRTI-resistant (RT K103N/Y181C) ; cells: MT-4 ; value: 0.011 µM
COc1ccc(/C=C/C=C/C(=O)[Se]c2ccccc2)cc1 ; strain or isolate: LAI ; cells: MT-2 ; value: 3.4 µM
Cc1cn(Cc2ccc(Br)c(Oc3cc(Cl)cc(C#N)c3)c2F)c(=O)[nH]c1=O ; strain or isolate: K103N/Y181C ; changes: NNRTI-resistant (RT K103N/Y181C) ; cells: MT-4 ; value: 0.011 µM
C#Cc1ccc(Nc2nccc(Oc3c(C)cc(-c4cn(Cc5ccc([N+](=O)[O-])cc5)nn4)cc3C)n2)cc1 ; strain or isolate: IIIB ; changes: Y181C ; cells: MT-4 ; value: 1.42 µM
Cc1cn([C@H]2C[C@H](N=[N+]=[N-])[C@@H](CO)O2)c(=O)[nH]c1=O ; strain or isolate: IIIB ; cells: MT-4 ; value: 0.0075 µM
Cc1ccnc2c1NC(=O)c1cccnc1N2C1CC1 ; changes: Wild type ; cells: MT-4 ; value: 0.08 µM
Nc1ccn([C@@H]2CS[C@H](CO)O2)c(=O)n1 ; strain or isolate: LAI ; cells: MT-2 ; value: 3.1 µM
CC(C)CN(C[C@@H](O)[C@H](Cc1ccccc1)NC(=O)O[C@H]1CCOC1)S(=O)(=O)c1ccc(N)cc1 ; strain or isolate: LAI ; cells: MT-2 ; value: 0.028 µM
N#Cc1cc(Cl)cc(Oc2c(Br)ccc(Cn3cc(Cl)c(=O)[nH]c3=O)c2F)c1 ; changes: Wild type ; cells: MT-4 ; value: 0.002 µM
COc1ccc(S(=O)(=O)N(CC(C)C)C[C@@H](O)[C@H](Cc2cc(F)cc(F)c2)NC(=O)O[C@H]2CO[C@H]3OCC[C@H]32)cc1 ; strain or isolate: LAI ; cells: MT-2 ; value: 0.0002 µM
C#Cc1ccc(Nc2nccc(Oc3c(C)cc(-c4cn(CC(=O)OC)nn4)cc3C)n2)cc1 ; strain or isolate: RES056 ; cells: MT-4 ; value: >10.35 µM
O=C(CCc1ccccc1)[Se]c1ccccc1 ; strain or isolate: LAI ; cells: MT-2 ; value: 8.7 µM
CC(C)Nc1cccnc1N1CCN(C(=O)c2cc3cc(NS(C)(=O)=O)ccc3[nH]2)CC1 ; strain or isolate: IIIB ; cells: MT-4 ; value: 0.107 µM
Cc1n[nH]c(=O)n1Cc1ccc(Br)c(Oc2cc(Cl)cc(C#N)c2)c1F ; strain or isolate: K103N/Y181C ; changes: NNRTI-resistant (RT K103N/Y181C) ; cells: MT-4 ; value: >0.1 µM
Cc1cc(C#N)cc(C)c1Oc1nc(Nc2ccc(C#N)cc2)ncc1SCC(=O)N1CCSCC1 ; changes: L100I ; cells: MT-4 ; value: 0.3745 µM
Cc1cc(C)c(Oc2ccc([N+](=O)[O-])c(NC3CCN(Cc4ccc(S(C)(=O)=O)cc4)CC3)n2)c(C)c1 ; strain or isolate: IIIB ; changes: Resistant strain (K103N + Y181C) ; cells: MT-4 ; value: >24 µM
C#Cc1ccc(Nc2nccc(Oc3c(C)cc(-c4cn(-c5cccc(C(=O)OC)c5)nn4)cc3C)n2)cc1 ; strain or isolate: IIIB ; changes: E138K ; cells: MT-4 ; value: 0.1 µM
C=C1[C@H](CO)[C@@H](O)C[C@@H]1n1cnc2c(=O)[nH]c(N)nc21 ; strain or isolate: IIIB ; cells: MT-4 ; value: 0.004 µM

A second listing of 5 rows from above:

SMILES	strain or isolate	changes	cells	value
O=C(CCc1ccccc1)[Se]c1ccccc1	LAI	-	MT-2	8.7 µM
O=C1CCc2ccccc2[Se]1	LAI	-	MT-2	>100 µM
Cc1n[nH]c(=O)n1Cc1ccc(Br)c(Oc2cc(Cl)cc(C#N)c2)c1F	K103N/Y181C	NNRTI-resistant (RT K103N/Y181C)	MT-4	>0.1 µM
Cc1cn([C@H]2C[C@H](N=[N+]=[N-])[C@@H](CO)O2)c(=O)[nH]c1=O	IIIB	-	MT-4	0.0075 µM
CN1C(=O)NC(=O)C1Cc1ccc(Br)c(Oc2cc(Cl)cc(C#N)c2)c1F	K103N/Y181C	NNRTI-resistant (RT K103N/Y181C)	MT-4	0.011 µM

Blank or dashed fields: not listed here. Conditions beyond the fields shown may differ between rows.